# Values of other authors in publication PMC10840515.
# Tested on: T cells of individuals
# Settings: healthy unexposed individuals; cited from earlier work
compound,measurement,value
CC[C@H](C)[C@H](NC(=O)CNC(=O)[C@@H](NC(=O)[C@H](CC(C)C)NC(=O)[C@H](C)NC(=O)[C@H](CCCNC(=N)N)NC(=O)[C@H](CC(N)=O)NC(=O)[C@H](CC(C)C)NC(=O)[C@H](CCC(N)=O)NC(=O)[C@@H](N)[C@@H](C)O)[C@@H](C)O)C(=O)N[C@@H](C)C(=O)N[C@H](C(=O)N[C@@H](CCC(=O)O)C(=O)N[C@@H](CCC(N)=O)C(=O)N[C@@H](CC(=O)O)C(=O)O)C(C)C,responding individuals,21%
same,responding individuals / tested,3/14
